Where “and” joins values, the source holds several entries; their conditions need not be identical. Identical values can stand only once. This is a selection; strong and weak results do not stand in their true shares. Results filed as inconclusive are left out. Calls of active or inactive are those of the source. Unless noted, calls follow the shape of the dose curve; as a rule, active = well fitted curve in the direction sought with a large enough effect; inconclusive = small, poorly fitted or top-dose-only effect, or another doubt; inactive = no such curve, though single readings can be large; an effect the other way counts as inactive or inconclusive.
Experiments:
[1] = biological target: Endonuclease 4 (Escherichia coli (strain K12)) (UniProt P0A6C1); test: Counterscreen for APE1 Inhibitors: qHTS Validation Assay for Inhibitors of Endonuclease IV (AID 1708); also: % is scaled to controls: 0 for no effect and ±100 for the full control effect; conditions: E. coli endonuclease IV, DNA cleavage fluorescence; at 57.1 µM (top of the series)
Procedure, shortened: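 Enzymatic AP-site incision assay using a double-stranded THF substrate labelled with TAMRA and BHQ-2; released fluorescence signals activity. Enzyme 2 nM, substrate 50 nM, 15 min compound preincubation.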

Amino acid sequences for entries named in this document (tags omitted). A change or cut given only in a name is not applied to a line headed by its entry.
UniProt P13267: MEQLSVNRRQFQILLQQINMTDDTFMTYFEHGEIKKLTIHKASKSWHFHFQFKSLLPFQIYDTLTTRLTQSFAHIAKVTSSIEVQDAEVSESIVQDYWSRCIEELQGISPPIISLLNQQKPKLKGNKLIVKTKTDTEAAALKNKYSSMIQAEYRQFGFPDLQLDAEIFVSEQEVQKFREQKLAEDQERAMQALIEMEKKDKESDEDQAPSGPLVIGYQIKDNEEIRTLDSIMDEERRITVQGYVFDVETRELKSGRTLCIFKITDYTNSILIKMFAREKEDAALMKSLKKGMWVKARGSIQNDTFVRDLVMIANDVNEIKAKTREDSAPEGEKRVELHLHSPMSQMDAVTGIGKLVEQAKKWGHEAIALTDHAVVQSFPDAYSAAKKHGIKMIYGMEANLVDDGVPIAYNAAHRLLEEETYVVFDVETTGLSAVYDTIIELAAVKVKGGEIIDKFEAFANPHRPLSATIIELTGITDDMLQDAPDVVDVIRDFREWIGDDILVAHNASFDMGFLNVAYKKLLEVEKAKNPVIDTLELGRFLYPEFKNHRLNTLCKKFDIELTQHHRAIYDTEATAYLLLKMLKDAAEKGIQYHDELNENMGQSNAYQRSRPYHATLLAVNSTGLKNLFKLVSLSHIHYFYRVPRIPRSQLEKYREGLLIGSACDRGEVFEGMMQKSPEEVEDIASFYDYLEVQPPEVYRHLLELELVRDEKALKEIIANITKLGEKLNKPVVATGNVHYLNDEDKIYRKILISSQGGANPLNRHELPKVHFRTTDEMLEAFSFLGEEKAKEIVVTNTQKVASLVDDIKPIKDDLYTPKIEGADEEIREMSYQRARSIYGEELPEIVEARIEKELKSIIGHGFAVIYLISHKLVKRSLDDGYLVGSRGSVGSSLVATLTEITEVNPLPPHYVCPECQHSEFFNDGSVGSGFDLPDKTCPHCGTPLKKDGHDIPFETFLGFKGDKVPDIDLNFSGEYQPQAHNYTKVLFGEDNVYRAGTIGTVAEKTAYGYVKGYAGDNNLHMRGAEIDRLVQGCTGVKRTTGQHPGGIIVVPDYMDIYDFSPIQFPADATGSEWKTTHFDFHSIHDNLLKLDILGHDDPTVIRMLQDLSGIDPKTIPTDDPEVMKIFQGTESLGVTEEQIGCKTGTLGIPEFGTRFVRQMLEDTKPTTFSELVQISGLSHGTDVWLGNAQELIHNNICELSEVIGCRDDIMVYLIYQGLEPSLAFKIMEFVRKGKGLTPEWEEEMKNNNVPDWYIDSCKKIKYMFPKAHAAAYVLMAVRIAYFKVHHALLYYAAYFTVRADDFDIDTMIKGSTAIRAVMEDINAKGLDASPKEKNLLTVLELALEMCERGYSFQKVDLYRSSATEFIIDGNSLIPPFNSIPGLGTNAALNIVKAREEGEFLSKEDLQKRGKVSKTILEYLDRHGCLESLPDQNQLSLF
UniProt Q99816: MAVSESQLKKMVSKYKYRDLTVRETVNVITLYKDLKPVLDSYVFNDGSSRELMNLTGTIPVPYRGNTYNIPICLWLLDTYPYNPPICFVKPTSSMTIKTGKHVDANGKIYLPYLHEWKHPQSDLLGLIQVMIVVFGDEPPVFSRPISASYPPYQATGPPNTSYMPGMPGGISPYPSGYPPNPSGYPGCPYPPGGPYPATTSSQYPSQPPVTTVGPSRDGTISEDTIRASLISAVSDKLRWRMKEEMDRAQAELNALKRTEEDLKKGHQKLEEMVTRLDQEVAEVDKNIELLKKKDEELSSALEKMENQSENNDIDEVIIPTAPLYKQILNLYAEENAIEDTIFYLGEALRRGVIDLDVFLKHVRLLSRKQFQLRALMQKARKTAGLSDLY
UniProt O15648: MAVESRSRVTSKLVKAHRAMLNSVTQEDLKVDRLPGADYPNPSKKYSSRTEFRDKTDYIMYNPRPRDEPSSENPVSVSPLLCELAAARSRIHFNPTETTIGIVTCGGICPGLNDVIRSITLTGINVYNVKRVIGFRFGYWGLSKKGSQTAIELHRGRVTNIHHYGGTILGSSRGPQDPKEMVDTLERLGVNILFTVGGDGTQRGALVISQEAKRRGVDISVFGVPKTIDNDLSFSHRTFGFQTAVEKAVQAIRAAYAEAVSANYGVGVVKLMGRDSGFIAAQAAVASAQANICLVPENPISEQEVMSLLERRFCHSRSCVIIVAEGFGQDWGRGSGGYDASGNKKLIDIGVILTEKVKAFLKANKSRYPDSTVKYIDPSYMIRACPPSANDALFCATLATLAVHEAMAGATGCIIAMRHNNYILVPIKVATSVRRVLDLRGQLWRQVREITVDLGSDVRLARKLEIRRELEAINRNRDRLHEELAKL
UniProt P09992: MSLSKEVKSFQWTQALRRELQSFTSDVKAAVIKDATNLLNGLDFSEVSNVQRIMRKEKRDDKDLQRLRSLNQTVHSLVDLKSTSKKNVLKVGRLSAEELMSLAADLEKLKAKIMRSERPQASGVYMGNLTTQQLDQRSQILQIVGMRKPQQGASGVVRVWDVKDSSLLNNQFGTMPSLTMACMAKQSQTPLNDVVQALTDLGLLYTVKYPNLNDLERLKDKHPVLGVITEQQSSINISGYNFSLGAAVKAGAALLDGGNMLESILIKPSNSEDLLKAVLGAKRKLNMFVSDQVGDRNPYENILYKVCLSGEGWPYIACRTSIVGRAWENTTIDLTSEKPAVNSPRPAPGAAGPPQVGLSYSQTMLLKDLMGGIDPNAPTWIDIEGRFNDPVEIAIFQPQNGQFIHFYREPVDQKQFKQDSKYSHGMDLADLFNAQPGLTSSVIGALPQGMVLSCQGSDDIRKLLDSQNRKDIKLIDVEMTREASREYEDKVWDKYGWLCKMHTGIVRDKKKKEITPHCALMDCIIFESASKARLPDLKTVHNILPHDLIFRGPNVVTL
UniProt Q27686: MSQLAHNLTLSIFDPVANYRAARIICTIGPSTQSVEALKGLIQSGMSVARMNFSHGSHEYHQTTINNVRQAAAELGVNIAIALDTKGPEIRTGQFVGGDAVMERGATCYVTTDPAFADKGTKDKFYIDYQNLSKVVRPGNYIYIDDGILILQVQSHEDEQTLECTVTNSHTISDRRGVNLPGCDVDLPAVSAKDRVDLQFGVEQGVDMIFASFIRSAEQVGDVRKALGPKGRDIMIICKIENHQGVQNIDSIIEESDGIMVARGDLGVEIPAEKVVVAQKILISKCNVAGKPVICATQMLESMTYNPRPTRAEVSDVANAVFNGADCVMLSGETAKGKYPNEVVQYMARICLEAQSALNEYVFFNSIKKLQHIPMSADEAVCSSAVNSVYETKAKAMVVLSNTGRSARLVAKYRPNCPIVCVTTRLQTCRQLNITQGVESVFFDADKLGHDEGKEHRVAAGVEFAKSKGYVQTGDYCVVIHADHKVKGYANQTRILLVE

[2] = qHTS for differential inhibitors of proliferation of Plasmodium falciparum line 3D7 (AID 1876); also: potency is read from the fitted curve at half-maximal effect; conditions: P. falciparum 3D7 proliferation inhibition
[3] = Validation screen for inhibitors of Lassa infection (AID 463096; calls by dose curve; also: % is scaled to controls: 0 for no effect and ±100 for the full control effect); conditions: Lassa virus infection, cell-based; at 46.1 µM (top of the series)
[4] = biological target: DNA polymerase III PolC-type (Bacillus subtilis (strain 168)) (UniProt P13267); test: qHTS Validation Assay for the Inhibitors of DNA Replication in Gram-Positive Bacteria (AID 485295); conditions: Gram-positive bacterial DNA replication assay; at 57.1 µM (top of the series);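 also: reconstituted holoenzyme with PolC plus beta clamp SSB and primase; PicoGreen fluorescence of double-stranded DNA made on primed circular M13 template; 0% = DMSO wells and -100% = EDTA-quenched background wells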
Procedure, shortened: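 PicoGreen fluorescence (ex 480–485/em 535–540 nm) reports dsDNA synthesized on ssM13Gori template with dNTPs/NTPs. Enzyme: holoenzyme rebuilt from purified PolC, beta subunit, SSB and primase. Compound preincubated before substrate addition; RT throughout.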

[5] = biological target: Tumor susceptibility gene 101 protein (Homo sapiens) (UniProt Q99816); test: qHTS Validation Assay for Iinhibitors of HIV-1 Budding by Blocking the Interaction of PTAP/TSG101 (AID 485342; calls by dose curve; also: 0% is about no effect); conditions: TSG101-PTAP binding, fluorescence polarization, 4-point titration; at 115 µM (top of the series)
Procedure, shortened: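 FP read-out: FITC-PTAP peptide, 50 nM final, binding Tsg101 binding domain, 10 uM final; 20 min r.t.; 10 mM HEPES pH 7.5, 0.15 M NaCl, 0.01% Tween 20, 3 mM EDTA, 0.1 mM TCEP.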

[6] = biological target: ATP-dependent 6-phosphofructokinase (Trypanosoma brucei brucei) (UniProt O15648); test: qHTS Validation Assay to Find Inhibitors of T. brucei phosphofructokinase (AID 485368); conditions: T. brucei PFK enzyme assay, qHTS 7-point titration; at 57.5 µM (top of the series)
[7] = Quantitative high throughput screen for delayed death inhibitors of the malarial parasite plastid, 48 hour incubation (AID 488752); conditions: Plasmodium falciparum growth; at 28.7 µM (top of the series); also: % is scaled to controls: 0 for no effect and ±100 for the full control effect; nearly all actives have a fitted effect of over 65% in size
Procedure, shortened: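 Erythrocytes infected with P. falciparum carrying an integrated firefly luciferase reporter (2% hematocrit, 0.1% parasitemia final) were exposed to compounds in RPMI 1640/0.5% Albumax for 48 h at 37 C, 5% CO2. Growth inhibition was scored as reduced luminescence.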

[8] = biological target: Phosphoglycerate kinase, glycosomal (Trypanosoma brucei brucei) (UniProt P07378); test: qHTS Validation Assay to Find Inhibitors of Phosphoglycerate Kinase (AID 504547); conditions: enzymatic PGK inhibition, coupled luminescence read-out; at 57.5 µM (top of the series);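 also: control wells lack PGK and mark full inhibition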
Procedure, shortened: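 Inhibition of the enzyme is judged by a Kinase-Glo Plus luminescent signal following a one-hour incubation at room temperature. Because 1,3-BPG is unstable, it is made in situ by GAPDH at 100nM final; no-PGK wells define the baseline.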

[9] = biological target: phosphoglycerate mutase (Leishmania major) (UniProt Q4Q090); test: qHTS Validation Assay to Find Inhibitors of Phosphoglycerate Mutase (AID 504548); conditions: biochemical enzyme activity; at 57.5 µM (top of the series); also: % is scaled to controls: 0 for no effect and ±100 for the full control effect
Procedure, shortened: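 Lm PGAM 1.25nM final; 100 mM TEA pH 7.6, 5 mM MgCl2, 0.01% Tween-20; 45 min RT; Kinase-GloPlus, 10 min; end-point luminescence. Enzyme-free wells as negative controls.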

[10] = qHTS of Trypanosoma Brucei Inhibitors: LOPAC Validation (AID 624147); conditions: Trypanosoma brucei growth inhibition; at 57.5 µM (top of the series); also: 0% is about no effect
Procedure, shortened: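 TbPYK + substrate in 50 mM TEA pH 7.2, 100 mM KCl, 10 mM MgCl2, 0.05% BSA, 0.01% Tween-20; cpd pinned; ADP 130 uM final; 45 min RT; Kinase-Glo Plus 10 min; luminescence endpoint.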

[11] = qHTS assay for measurement of the activity of small molecule inhibitors on Zika virus induced Caspase-3 activity in human iPSC derived neural progenitor cells (hNPCs) (AID 1224857); conditions: hNPCs ZIKV-induced caspase-3/7, Caspase-Glo luminescence, 6 h; at 45.7 µM (top of the series) unless noted; also: % of control where 0% means no effect; nearly all actives have a fitted effect of over 65% in size
[12] = qHTS assay for measurement of the activity of small molecule inhibitors on Zika virus induced Caspase-3 activity in human astrocytoma cells (AID 1224859); conditions: SNB-19 ZIKV-induced caspase-3/7, luminescence, 6 h; at 45.7 µM (top of the series) unless noted;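 also: plate controls were ZIKV-infected untreated cells for no effect and uninfected cells for full effect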
[13] = NS1 protein of Zika virus - qHTS assay to identify small molecule inhibitors in human HEK 293 cells (AID 1347053); conditions: HEK293 ZIKV MR766 infection, NS1 TR-FRET, 24 h; at 46.1 µM (top of the series) unless noted;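 also: plate controls were infected untreated cells for no effect and uninfected cells for full effect; nearly all actives have a fitted effect of over 55% in size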
[14] = qHTS for Inhibitors of the Functional Ribonucleoprotein Complex (vRNP) of Lassa (LASV) Arenavirus: LASV Primary Screen - GLuc reporter signal (AID 1347082; calls by dose curve; tested in HEK293 reporter line; also: % is scaled to controls: 0 for no effect and ±100 for the full control effect; nearly all actives have a fitted effect of over 60% in size); conditions: LASV minigenome vRNP, Gaussia luciferase reporter; at 57.5 µM (top of the series) unless noted
[15] = qHTS for Inhibitors of the Functional Ribonucleoprotein Complex (vRNP) of Lassa (LASV) Arenavirus: Viability assay - alamar blue signal for LASV Primary Screen (AID 1347083; calls by dose curve; tested in HEK293 reporter line; also: % is scaled to controls: 0 for no effect and ±100 for the full control effect; nearly all actives have a fitted effect of over 80% in size); conditions: cell viability, alamar blue fluorescence (LASV minigenome counter-screen); at 57.5 µM (top of the series) unless noted
[16] = qHTS for Inhibitors of the Functional Ribonucleoprotein Complex (vRNP) of Lymphocytic Choriomeningitis Arenaviruses (LCMV): Viability assay - alamar blue signal for LCMV Primary Screen (AID 1347085; calls by dose curve; tested in HEK293 reporter line; also: % is scaled to controls: 0 for no effect and ±100 for the full control effect; nearly all actives have a fitted effect of over 80% in size); conditions: alamar blue viability counter-screen, LCMV vRNP screen cells; at 57.5 µM (top of the series) unless noted
[17] = biological target: Nucleoprotein (Lymphocytic choriomeningitis virus (strain Armstrong)) (UniProt P09992); test: qHTS for Inhibitors of the Functional Ribonucleoprotein Complex (vRNP) of Lymphocytic Choriomeningitis Arenaviruses (LCMV): LCMV Primary Screen - GLuc reporter signal (AID 1347086; calls by dose curve; also: % is scaled to controls: 0 for no effect and ±100 for the full control effect; nearly all actives have a fitted effect of over 70% in size); conditions: LCMV minigenome vRNP cell assay, Gaussia luciferase reporter; at 57.5 µM (top of the series) unless noted
[18] = test system: Zika virus NS2B-NS3 protease (unlinked); test: Optimization of GU AMC qHTS for Zika virus inhibitors: Unlinked NS2B-NS3 protease assay (AID 1347151); conditions: recombinant ZIKV NS2B-NS3 protease, fluorogenic AMC substrate; at 52.5 µM (top of the series);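 also: 0% = no-inhibitor control and -100% = no-enzyme control; nearly all actives have a fitted effect of over 80% in size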
Procedure, shortened: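 Fluorescence read-out (340 nm ex / 450 nm em) of AMC peptide cleavage, taken immediately and after 15 min at room temperature (~20% conversion). Enzyme was the unlinked NS2B–NS3 complex at 25 nM in Tris pH 8.0 buffer.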

[19] = Primary qHTS for inhibitors of La Crosse Virus (LACV) - induced cell death in SH-SY5Y cells (AID 1508616); conditions: SH-SY5Y LACV cytopathicity rescue, ATP luminescence, 6 d; at 9.63 µM (top of the series) unless noted;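 also: top concentration of the series differs between compounds; 0% = infected DMSO wells and 100% = uninfected DMSO wells; higher means more rescue of cells from virus-induced death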
Procedure, shortened: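 Luminescent ATP readout (ATPLite 1step, 5 min room temperature) measured rescue from LACV-induced death after 6 days of infection at 0.01 MOI; normalized to infected DMSO wells and uninfected DMSO wells.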

[20] = test system: Zika virus NS2B-NS3 protease (unlinked complex); test: Primary screen GU Rhodamine qHTS for Zika virus inhibitors: Unlinked NS2B-NS3 protease assay (AID 1347159); conditions: Recombinant ZIKV NS2B-NS3 protease, Rhodamine110 substrate fluorescence; at 107 µM (top of the series); also: % is scaled to controls: 0 for no effect and ±100 for the full control effect; nearly all actives have a fitted effect of over 60% in size
Procedure, shortened: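 Noncovalent NS2B hydrophilic domain–NS3 protease domain complex (25 nM) preincubated 15 min at room temperature with compounds (up to 114 microM) in 10 mM Tris-HCl pH 8.0, 0.01% Tween 20; 1.5 microM Rhodamine110 substrate added, fluorescence change over 15 min fitted to Hill equation.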

[21] = test system: Zika virus NS2B-NS3 protease (linked construct); test: Primary screen NINDS Rhodamine qHTS for Zika virus inhibitors (AID 1347160); conditions: purified NS2B-NS3 protease, Rhodamine110 substrate fluorescence; activity change, negative = inhibition: at 57.1 µM (top of the series); also: % is scaled to controls: 0 for no effect and ±100 for the full control effect; nearly all actives have a fitted effect of over 55% in size
Procedure, shortened: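 Purified linked NS2B-NS3 protease (NS2B hydrophilic domain joined to NS3 protease by flexible linker), 25 nM in 10 mM Tris-HCl pH 8.0, 0.01% Tween 20. Compounds titrated, 15 min preincubation at room temperature; 1.5 microM Rhodamine110 substrate, FITC fluorescence change over 15 min.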

[22] = biological target: Pyruvate kinase (Leishmania mexicana) (UniProt Q27686); test: qHTS Validation Assay for Inhibitors of Leishmania Mexicana Pyruvate Kinase (AID 945);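 also: 0% = DMSO only neutral control wells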; conditions: purified L. mexicana pyruvate kinase, enzyme activity, E451W mutant enzyme; at 57.5 µM (top of the series)
Procedure, shortened: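 LmPYK E451W 0.2 nM; 0.5 mM PEP, 0.1 mM ADP, 7 mM MgCl2, 50 mM KCl, imidazole pH 7.2, 0.01% Tween 20, 0.05% BSA; 1 h RT; PKLight luminescence; DMSO-normalized.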

[23] = test system: Zika virus NS2B-NS3 protease; test: Primary screen GU AMC qHTS for Zika virus inhibitors (AID 1347154); conditions: Zika NS2B-NS3 unlinked protease, AMC fluorogenic substrate; at 54.1 µM (top of the series) unless noted;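 also: 0% = no-inhibitor control and -100% = no-enzyme control; nearly all actives have a fitted effect of over 70% in size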
[24] = qHTS for differential inhibitors of proliferation of Plasmodium falciparum line Dd2 (AID 1882); conditions: Plasmodium falciparum Dd2 proliferation inhibition; also: potency is read from the fitted curve at half-maximal effect; nearly all actives have a fitted effect of over 65% in size
Procedure, shortened: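 SYBR Green I DNA fluorescence read-out, ex 485/em 535 nm. Signals were normalized to 0.29 uM artemisinin and DMSO wells, then corrected using vehicle-only plates flanking each stack. Parasite growth ran 72 h in erythrocytes before lysis.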

[25] = Quantitative high throughput screen for delayed death inhibitors of the malarial parasite plastid, 96 hour incubation (AID 488745); conditions: Plasmodium falciparum growth; at 28.7 µM (top of the series); also: % is scaled to controls: 0 for no effect and ±100 for the full control effect; nearly all actives have a fitted effect of over 70% in size
Procedure, shortened: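 P. falciparum carrying an integrated firefly luciferase reporter, grown in erythrocytes (2% hematocrit, 0.1% parasitemia final) in RPMI 1640/0.5% Albumax, was exposed to compound for 96 h (two generations) at 37 C, 5% CO2. Luminescence decrease indicated growth inhibition.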

CN(C(=O)Cc1ccc(Cl)c(Cl)c1)[C@@H]1CC[C@]2(CCCO2)C[C@H]1N1CCCC1
active: Potency [2] 12.6 µM
inactive: activity change, negative = inhibition [1] -9.48% | activity change, negative = inhibition [3] -43.8% | activity change, negative = inhibition [4] 5.95% | fluorescence change [5] 3.12% | outcome [6] | activity change, negative = inhibition [7] -29.7% | activity, negative = inhibition [8] 6.68% | activity change, negative = inhibition [9] -4.29% | activity change, negative = inhibition [10] -4.7% | activity change, negative = inhibition [11] 14.1% | activity change, negative = inhibition [12] -1.23% | activity change, negative = inhibition [13] 17.8% | activity change, negative = inhibition [14] -2.24% | activity change, negative = reduced viability [15] -8.87% | activity change, negative = lower viability [16] -9.15% | activity change, negative = inhibition [17] -9.27% | activity change, negative = inhibition [18] 4.24% | activity change [19] -28.5%

CN(C(=O)Cc1ccc(Cl)c(Cl)c1)[C@H]1CCCC[C@H]1N1CCCC1
inactive: activity change, negative = inhibition [20] 20.4% | activity change, negative = inhibition [21] 55.8%

CN(C(=O)Cc1ccc(Cl)c(Cl)c1)[C@@H]1CCCC[C@H]1N1CCCC1
inactive: activity change, negative = inhibition [22] 3.09% and 12.4% and -9.83% | activity change, negative = inhibition [1] -2.81% | activity change, negative = inhibition [7] -16.4% | activity change, negative = inhibition [23] -0.292%

CN(C(=O)Cc1ccccc1)[C@@H]1CC[C@]2(CCCO2)C[C@H]1N1CCCC1
inactive: activity change, negative = inhibition [1] -5.06% | activity change, negative = inhibition [3] -4.79% | activity change, negative = inhibition [4] -2.2% | fluorescence change [5] 5.63% | activity change, negative = inhibition [25] -92.4% | activity, negative = inhibition [8] 1.29% | activity change, negative = inhibition [9] -5.8% | activity change, negative = inhibition [10] -9.99% | activity change, negative = inhibition [11] 112% | activity change, negative = inhibition [12] 4.86% | activity change, negative = inhibition [13] -3.53% | activity change, negative = inhibition [14] -2.5% | activity change, negative = reduced viability [15] 27.5% | activity change, negative = lower viability [16] 5.24% | activity change, negative = inhibition [17] 9.77% | activity change, negative = inhibition [18] -4.56% | activity change [19] 22.2%
active: Potency [24] 10 µM

— PubChem BioAssay (NCATS)
